Publication PMC5595328
Construct, isoform or probe ends are uncertain for at least one entry. For part of these data: At least one verdict rests on a figure or table, not on a statement of the authors.

Protein sequences, listed by entry. Tags and fused reporters are not part of them. Lines headed by an entry give the natural chain unless they say otherwise; changes in a name come on top.
UniProt P39897: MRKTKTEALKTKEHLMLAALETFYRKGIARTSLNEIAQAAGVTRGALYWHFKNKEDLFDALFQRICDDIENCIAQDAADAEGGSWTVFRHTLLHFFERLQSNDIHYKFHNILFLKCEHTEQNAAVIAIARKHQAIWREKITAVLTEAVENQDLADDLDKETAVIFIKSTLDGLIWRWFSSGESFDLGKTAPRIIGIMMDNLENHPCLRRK

What was measured:
[1] = test system: VarR (Vibrio cholerae O1 biovar El Tor N16961); assay: EMSA; conditions: 50 mM Tris-HCl pH 7.5, 5 mM EDTA, 1 mM DTT, 100 ug/ml BSA, 5% glycerol, on ice 10 min, 4% polyacrylamide gel, recombinant protein, protein details: His6 (pQE-100, N-terminal)
[2] = test system: VarR (Vibrio cholerae O1 biovar El Tor N16961); assay: competition with a labelled probe; conditions: 50 mM Tris-HCl pH 7.5, 5 mM EDTA, 1 mM DTT, 100 ug/ml BSA, 5% glycerol, on ice 10 min, 4% polyacrylamide gel, recombinant protein, protein details: His6 (pQE-100, N-terminal), label: 32P
[3] = target: MtrR (UniProt P39897); assay: EMSA; conditions: 200 ng MtrR, positive control; 50 mM Tris-HCl pH 7.5, 5 mM EDTA, 1 mM DTT, 100 ug/ml BSA, 5% glycerol, on ice 10 min; 4% polyacrylamide gel; recombinant …; label: 32P

## TATACATACTATAACAAGCATGCATTTTTGAT (double strand) [2nd 32 bp varR-varG IR]
[1]; 50 and 200 ng VarR, label: 32P on strand 1
  binding result: binds

## GATATGATTGATCACTAATTAGACGACCTT / AAGGTCGTCTAATTAGTGATGAATCATATC [varGA1 (30 bp)]
[1]; 50 ng VarR, label: 32P
  binding result: binds
[2]; unlabelled varGA1 displaces labelled varGA1
  binding result: binds

## TTTTTATCCGTGCAATCGTGTATGTATAATG (double strand) [VarPC / Mtr1 (31 bp)]
[3]
  binding result: binds

## ATAACAGCATGCTGGGAGGCCAGCA (double strand) [25 bp varB-varC IR]
[1]; 0-400 ng VarR, label: 32P
  binding result: binds
[2]; unlabelled N24 displaces labelled N24
  binding result: binds
